PubChem BioAssay AID1259414, Drosophila RNAi Screening Center | 2018
In all, the deposit lists about 24,000 reagents; this is a random part of those with a known target gene and a result. Over the whole deposit, about 1,210 (5%) were called active. 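Inactive calls also include excluded dsRNAs with several or no targets, genes unexpressed in JW18, and well A1, regardless of score.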 Unmarked entries are inactive. Reagents against one gene are numbered here. Names joined by + are all predicted targets of the reagent.

Purpose: 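Genome-wide screen for host control of endosymbiont load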 (primary screen)
System: Drosophila JW18 cells infected with Wolbachia
Reagents: long dsRNA against Drosophila genes, 0.25 µg dsRNA per well of a 384-well plate
Duration: 5 days
Conditions: cells persistently infected with Wolbachia before knock-down; no added drug
Read-out: 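Automated imaging of bacterial rRNA staining divided by host cell count, reported as plate-normalised robust z-score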
Reading the numbers: Wolbachia per cell robust z: higher = more Wolbachia per host cell than the plate typical
Rule for the call: 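Hit when robust z is 1.5 or more, or -1.5 or less, in at least two of three replicates; excludes dsRNAs with several or no targets, genes not expressed in JW18 and well A1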

tweek #1
- Wolbachia per cell robust z, rep 1: 0.000264
- Wolbachia per cell robust z, rep 2: 0.454
- Wolbachia per cell robust z, rep 3: 0.617

tweek #2
- Wolbachia per cell robust z, rep 1: 0.248
- Wolbachia per cell robust z, rep 2: -0.229
- Wolbachia per cell robust z, rep 3: -2.89

tweek #3
- Wolbachia per cell robust z, rep 1: 0.0843
- Wolbachia per cell robust z, rep 2: -1.84
- Wolbachia per cell robust z, rep 3: -0.08

Cyt-c-d (Cytochrome c distal) #1
- Wolbachia per cell robust z, rep 1: -0.0325
- Wolbachia per cell robust z, rep 2: 0.243
- Wolbachia per cell robust z, rep 3: -0.292

Cyt-c-d (Cytochrome c distal) #2
- Wolbachia per cell robust z, rep 1: 0.745
- Wolbachia per cell robust z, rep 2: -1.4
- Wolbachia per cell robust z, rep 3: 0.794

MtnC (Metallothionein C)
- Wolbachia per cell robust z, rep 1: -5.64
- Wolbachia per cell robust z, rep 2: -0.802
- Wolbachia per cell robust z, rep 3: -0.399

CG34408 #1
- Wolbachia per cell robust z, rep 1: 0.125
- Wolbachia per cell robust z, rep 2: 0.157
- Wolbachia per cell robust z, rep 3: 0.691

CG34408 #2
- Wolbachia per cell robust z, rep 1: -2.36
- Wolbachia per cell robust z, rep 2: -0.492
- Wolbachia per cell robust z, rep 3: -0.0671

CG34408 #3
- Wolbachia per cell robust z, rep 1: -0.0675
- Wolbachia per cell robust z, rep 2: 0.977
- Wolbachia per cell robust z, rep 3: 0.836

CG34408 #4
- Wolbachia per cell robust z, rep 1: 0.178
- Wolbachia per cell robust z, rep 2: 0.537
- Wolbachia per cell robust z, rep 3: -0.722

AstA-R1 (Allatostatin A receptor 1) #1
- Wolbachia per cell robust z, rep 1: 0.988
- Wolbachia per cell robust z, rep 2: 0.442
- Wolbachia per cell robust z, rep 3: 1.35

AstA-R1 (Allatostatin A receptor 1) #2
- Wolbachia per cell robust z, rep 1: 0.0563
- Wolbachia per cell robust z, rep 2: -0.0319
- Wolbachia per cell robust z, rep 3: -0.0546

AstA-R1 (Allatostatin A receptor 1) #3
- Wolbachia per cell robust z, rep 1: 0.268
- Wolbachia per cell robust z, rep 2: 0.682
- Wolbachia per cell robust z, rep 3: 0.723

Syt7 (Synaptotagmin 7) #1
- Wolbachia per cell robust z, rep 1: 0.947
- Wolbachia per cell robust z, rep 2: 0.863
- Wolbachia per cell robust z, rep 3: -0.666

Syt7 (Synaptotagmin 7) #2
- Wolbachia per cell robust z, rep 1: -1.02
- Wolbachia per cell robust z, rep 2: -0.992
- Wolbachia per cell robust z, rep 3: -2.92

Polr3G (RNA polymerase III subunit G)
- Wolbachia per cell robust z, rep 1: 0.0883
- Wolbachia per cell robust z, rep 2: 0.675
- Wolbachia per cell robust z, rep 3: 0.895

ppk27 (pickpocket 27) #1
- Wolbachia per cell robust z, rep 1: 0.155
- Wolbachia per cell robust z, rep 2: -3.59
- Wolbachia per cell robust z, rep 3: 0.558

ppk27 (pickpocket 27) #2
- Wolbachia per cell robust z, rep 1: -3.58
- Wolbachia per cell robust z, rep 2: -1.18
- Wolbachia per cell robust z, rep 3: -1.06

LIMK1 (LIM domain kinase 1)
- Wolbachia per cell robust z, rep 1: -3.19
- Wolbachia per cell robust z, rep 2: -10
- Wolbachia per cell robust z, rep 3: -0.932

CG44013 + CG44014
- Wolbachia per cell robust z, rep 1: -0.133
- Wolbachia per cell robust z, rep 2: -1.64
- Wolbachia per cell robust z, rep 3: -0.746

CG7011 + Prp31
- Wolbachia per cell robust z, rep 1: -0.181
- Wolbachia per cell robust z, rep 2: -5.17
- Wolbachia per cell robust z, rep 3: 0.0538

CG18294
- Wolbachia per cell robust z, rep 1: -2.37
- Wolbachia per cell robust z, rep 2: -0.815
- Wolbachia per cell robust z, rep 3: 0.924

Gart (GART trifunctional enzyme) #1
- Wolbachia per cell robust z, rep 1: -0.342
- Wolbachia per cell robust z, rep 2: 0.695
- Wolbachia per cell robust z, rep 3: -0.677

Gart (GART trifunctional enzyme) #2
- Wolbachia per cell robust z, rep 1: 0.34
- Wolbachia per cell robust z, rep 2: 0.28
- Wolbachia per cell robust z, rep 3: -1.5

3 consecutive reagents already listed:
Syt7 (Synaptotagmin 7) #2
- Wolbachia per cell robust z, rep 1: -1.02
- Wolbachia per cell robust z, rep 2: -0.992
- Wolbachia per cell robust z, rep 3: -2.92

Polr3G (RNA polymerase III subunit G)
- Wolbachia per cell robust z, rep 1: 0.0883
- Wolbachia per cell robust z, rep 2: 0.675
- Wolbachia per cell robust z, rep 3: 0.895

ppk27 (pickpocket 27) #1
- Wolbachia per cell robust z, rep 1: 0.155
- Wolbachia per cell robust z, rep 2: -3.59
- Wolbachia per cell robust z, rep 3: 0.558
